Results from US20260001933A1.

Target: Protein A (Sensor Chip Protein A, Cytiva) (UniProt P38507)
Test: SPR (Biacore 8K), Sensor Chip Protein A, sample injected over the chip, 1:1 binding kinetic fit; column head 'Kinetics affinity KD (nM)'

Question: For Bedinvetmab (antibody), which Kd is on record?
Answer: The Kd was 0.01 nM.
